Results of unrelated studies side by side (data: NIAID ChemDB).

All rows: target-level tests; agent: HIV-1; target: Reverse transcriptase; read-out: inhibition

Rows are shuffled and stem from different studies. An empty or dashed field is not shown. Inhibition is in % at the dose shown (toxicity tests: loss of growth or viability).

SMILES	dose	read by	strain or isolate	changes	value
COc1cc(O)cc(OC)c1C(=O)c1cc(O)cc(O)c1	200 µg/mL	RT activity / radiometric			-28.93%
O=C(/C=C/c1ccc(O)c(O)c1)O[C@H]1[C@@H]2C=CO[C@@H](OC3OC(CO)C(O)C(O)C3O)[C@@H]2[C@@]2(CO)O[C@@H]12	200 µg/mL	RT activity / fluorescence	MC99		27.3%
COc1c(O)cc(O)c2c(=O)c3cc(O)ccc3oc12	200 µg/mL	RT activity / radiometric			93.05%
COc1cc(C)c(Cl)c2c1C(=O)C=CC2=O	50 µg/mL	RT activity			70%
C[C@@H]1CC[C@]2(C(=O)O)CC[C@]3(C)C(=CCC4[C@@]5(C)CC[C@H](O)C(C)(C)[C@@H]5CC[C@]43C)C2[C@H]1C	200 µg/mL	RT activity / fluorescence	MC99		63.7%
O=c1c(O)c(-c2ccc(O)c(O)c2)oc2cc(O)cc(O)c12	2 µg/mL	nucleotide incorporation			100%
COc1cc(O)cc(O)c1C(=O)c1cc(O)cc(O)c1	200 µg/mL	RT activity / radiometric			-17.92%
COc1cc2cc3c(c(-c4ccc5c(c4)OCO5)c2cc1OC)COC3=O	15 µM	nucleotide incorporation / radiometric			>80%
O=c1c2cccc(O)c2oc2cc(O)cc(O)c12	200 µg/mL	RT activity / radiometric			72.01%
C=C[C@@](C)(O)CC/C(C)=C/C(=O)O[C@H]1[C@@H]2C=CO[C@@H](OC3OC(CO)C(O)C(O)C3O)[C@@H]2[C@@]2(CO)O[C@@H]12	200 µg/mL	RT activity / fluorescence	MC99		3.5%
O=C1CSC(c2c(Cl)ncnc2Cl)N1n1cnnc1	10 µg/mL	RT activity / ELISA / absorbance			37.57%
Cc1cc(O)c2c(c1F)C(=O)C=CC2=O	100 µg/mL	RT activity			100%
COc1nc(C)nc(N2C(=O)CSC2c2c(Cl)ncnc2Cl)n1	100 µg/mL	RT activity / ELISA / absorbance			60.93%
Cc1ccc2c(c1O)C(=O)C=CC2=O	25 µg/mL	RT activity			56%
COc1cc(O)c2c(=O)cc(-c3cc(OC)c(OC)c(OC)c3OC)oc2c1	200 µg/mL	nucleotide incorporation / radiometric			3%
O=C1CSC(c2c(Cl)ncnc2Cl)N1c1ccccn1	10 µg/mL	RT activity / ELISA / absorbance			7.27%
CCOc1cc(C)c(Cl)c2c1C(=O)C=CC2=O	50 µg/mL	RT activity			60%
C1=Cc2cccnc2N(C2CC2)c2ncccc21	1 µM	nucleotide incorporation		RT-Y181C	53%
CC(C)=CC(=O)C[C@@H](C)[C@H]1CC[C@@]2(C)[C@@H]3CC[C@H]4C(C)(C)[C@@H](O)C[C@H](O)[C@@]45C[C@@]35CC[C@]12C	200 µg/mL	nucleotide incorporation / radiometric			61.5%
O=C1C[C@@H](c2ccc(O)cc2)Oc2cc(O)cc(O)c21	200 µg/mL	RT activity / ELISA			44.22%
COC(=O)C1(O)C[C@@H](OC(=O)/C=C/c2ccc(O)c(O)c2)C(O)[C@H](OC(=O)/C=C/c2ccc(O)c(O)c2)C1	100 µg/mL	RT activity / absorbance			61.9%
O=C(O)CP(=O)(O)O	700 µM	ELISA			9%
O=C1CSC(c2c(F)cccc2Cl)N1n1cnnc1	100 µg/mL	RT activity / ELISA / absorbance			52.91%
Cc1cc(Cl)c2c(c1O)C(=O)C=CC2=O	50 µg/mL	RT activity			68%
COc1c2c(c3c(c1C(=O)c1ccccc1)OC(C)(C)C=C3)OC(C)(C)C=C2	200 µg/mL	RT activity / radiometric			21.97%
COc1cc(/C=C/C(=O)CC(=O)/C=C/c2ccc(O)c(OC)c2)ccc1O	12.5 µM	ELISA			18%
C=CC(C)(C)c1c2c(c(O)c3c(=O)c4ccc(O)c(O)c4oc13)C=CC(C)(C)O2	200 µg/mL	RT activity / radiometric			93.03%
O=C(O)/C=C/c1ccc(O)c(O)c1	200 µg/mL	RT activity / fluorescence	MC99		70.4%
COc1cc(O)ccc1/C=C/C(=O)c1ccc(O)cc1O	200 µg/mL	RT activity / ELISA			34.01%
O=C(/C=C/c1ccc(O)c(O)c1)OC1[C@H](O)CC(O)(C(=O)O)C[C@H]1O	100 µg/mL	RT activity / absorbance			43.9%
COc1cc(O)cc(O)c1C(=O)c1ccc(O)c(O)c1	200 µg/mL	RT activity / radiometric			67.79%
CC(=O)c1ccc(C)cc1NC(C(N)=O)c1c(Cl)cccc1Cl	0.8 µg/mL				32.9%
Cc1cn([C@H]2CC[C@@H](COP(=O)(O)OP(=O)(O)OP(=O)(O)O)O2)c(=O)[nH]c1=O	100 µM	ELISA			100%
Cc1cc(O)c2c(c1)C(=O)C=CC2=O	100 µg/mL	RT activity			100%
CC(C)/C=C/c1cc(/C=C/C(=O)O)cc(/C=C/C(C)C)c1	200 µg/mL	RT activity / ELISA			41.59%
O=C(/C=C/c1ccc(O)c(O)c1)O[C@@H]1CC(O)(C(=O)O)C[C@@H](OC(=O)/C=C/c2ccc(O)c(O)c2)C1O	100 µg/mL	RT activity / absorbance			54.3%
O=c1c2cc(O)c(O)cc2oc2cc(O)cc(O)c12	200 µg/mL	RT activity / radiometric			44.88%
CCc1c(Sc2ccccn2)n(COCc2ccccc2)c(=O)[nH]c1=O	50 µM		WT		95%
COc1cc(-c2cc(=O)c3c(O)cc(O)cc3o2)c(OC)c(OC)c1OC	200 µg/mL	nucleotide incorporation / radiometric			18.7%
O=C1CSC(c2c(Br)cncc2Br)N1n1cnnc1	10 µg/mL	RT activity / ELISA / absorbance			4.55%
CC1OC(OC2C(Oc3cc(O)c4c(=O)c(O)c(-c5ccc(O)cc5)oc4c3)OC(CO)C(O)C2O)C(O)C(O)C1O	200 µg/mL	RT activity / fluorescence	MC99		40.9%
Cc1coc(N2C(=O)CSC2c2c(Cl)ncnc2Cl)n1	100 µg/mL	RT activity / ELISA / absorbance			65.81%
C=C(CC[C@@H](C)[C@H]1CC[C@@]2(C)[C@@H]3CC[C@H]4[C@](C)(C(=O)O)[C@@H](O)CC(=O)[C@@]45C[C@@]35CC[C@]12C)C(C)C	200 µg/mL	nucleotide incorporation / radiometric			80.1%

For reference, 2 entries again:

| SMILES | dose | read by | strain or isolate | changes | value |
|---|---|---|---|---|---|
| COc1c2c(c3c(c1C(=O)c1ccccc1)OC(C)(C)C=C3)OC(C)(C)C=C2 | 200 µg/mL | RT activity / radiometric |  |  | 21.97% |
| COc1cc(O)cc(O)c1C(=O)c1cc(O)cc(O)c1 | 200 µg/mL | RT activity / radiometric |  |  | -17.92% |